{"source": "paper PMC3227635", "tested_on": "O=S(O)(O)=S", "assay": "purified protein", "conditions": "pH 8.6; 25.0 °C"}
{"substance": "(Mycobacterium tuberculosis H37Rv)", "values": [{"measurement": "Km", "result": "4.19 ± 0.42", "unit": "mM"}]}
